Our source for the survival values is PubChem BioAssay AID463173 (ICCB-Longwood Screening Facility, Harvard Medical School, 2010).

Structures are written as SMILES. Only a part is listed here, and it is no random draw. Activity calls are given as the source filed them. Rule as the data show it: active = survival mostly below about 52% (no sharp cut-off); inactive = mostly above about 56%.

In the test the test system is DeltatarO mutant. Nature of the test: growth inhibition of S. aureus wild type versus tarO mutant, primary screen, teichoic acid synthesis inhibitors, RN4220, OD600 (AID 463173). To be noted: OD600, 18 h, stronger effect = lower value, screened at 18.75 µg/mL (by protocol).
With `CC(C)(C)c1ccc(C(=O)NCC2(N3CCOCC3)CCCCC2)cc1`, the survival was inactive: 95%. Take `Cc1ccccc1C(=O)NCC1(N(C)C)CCCCC1`: the survival was inactive: 81%. Take `CN(C)C1(CNC(=O)c2ccc(C(C)(C)C)cc2)CCCCC1`: the survival is inactive: 89%. Next, `COc1cc(C(=O)NCC2(N3CCOCC3)CCCCC2)cc(OC)c1OC`: inactive: 99%.

As for `O=C(NCC1(N2CCOCC2)CCCCC1)c1ccccc1`, the survival was inactive: 94%. The figure for `O=C(NCC1(N2CCOCC2)CCCCC1)c1ccc([N+](=O)[O-])cc1` is inactive: 94%; for `O=C(NCC1(N2CCOCC2)CCCCC1)c1ccccc1[N+](=O)[O-]` it is inactive: 92%. Take `CCCOc1cccc(C(=O)NCC2(N3CCOCC3)CCCCC2)c1`: the survival is inactive: 62%. Next, `CCOc1ccc(C(=O)NCC2(N3CCOCC3)CCCCC2)cc1`: inactive: 98%; `CCCCOc1ccccc1C(=O)NCC1(N2CCOCC2)CCCCC1`: inactive: 68%. Take `O=C(NCC1(N2CCOCC2)CCCCC1)c1ccccc1Br`: the survival was inactive: 87%. The figure for `O=C(NCC1(N2CCOCC2)CCCCC1)c1ccc(Cl)cc1` is inactive: 103%. For `COc1ccccc1C(=O)NCC1(N2CCOCC2)CCCCC1`, the survival was inactive: 90%.
